{
  "source": "paper PMC4191427",
  "about": "“Molecular mechanisms of two-component system RhpRS regulating type III secretion system in Pseudomonas syringae” (Nucleic Acids Research, 2014)",
  "data": [
    {"tested_on": "RhpRpsph (Pseudomonas syringae pv. phaseolicola)", "experiment": "EMSA", "details": "10 mM Tris-HCl pH 7.4, 50 mM KCl, 5 mM MgCl2, 10% glycerol, 3 ug/ml sheared salmon sperm DNA, room temperature; recombinant protein; residues 1-249; protein details: His-tag (HisTrap purified, LIC vector pMCSG19); label: 32P 5' end; probe letters rebuilt from the primers and the genome", "values": [
      {"sequence": "ATCTGGTCAACGATCCGAAGCTCAATGCACCTGAATGTCTGACGCCATTGAGTTAGACGGGCAGGGATAAGACCGATGAATCAGACAAATCCGATATCCGCCTTGAAGCGCATCTGATACAAACTGGACATACGTGCGGGAACCATCCACCTCTCTCAAAGACCAAGATGCCAGTTGGCCGGCATCTGGCGCAGAGATCTGCCCCGCAATGGCCGTTTCACAAACAAGGAGATTCACCATGCGTCAGTCATTTGCCCTCTGTGCCTTGAGCGCTGCGTTGCTGCTCGGCGGGTGTCAGGCAGTCAATACCACCA (double strand) [PSPPH1035]", "binding result": "binds"},
      {"sequence": "CTCCGAGCAGCTCTAGCATTTGTACGTCATCTAGGCGATATGAGCGCTGCAAGATTATTTCGCGAGCGCAGGTAAACACCTCCAGCGAAACAACTCCTTGAAATGCGCCGTCGCAGCGAACCCACTTGTCGGGTGGATTGCGACTGATACGTTTGCGCAGCTTGGAGGATGTTTTGTTGTAGACATTGTTGCCAATATATTTCTCGTTGGTCAGCACTTGGTGGACGCTGCCCCTGCTCCAAGGACGGTCGAAGTCGGTGAGCAGGCCATCTGCATTTAGTACGTTGGCAATCTCACGCTCGTTCAGTCC (double strand) [PSPPH0100]", "binding result": "binds"},
      {"sequence": "CGCATGTAGCACGTGATGTTGACAGAAGTCTGATCAGCATCCGTGATCTGGCCGTACAGAGCAGCGAAGGCACCCGGCAAACACTGATTGCCAGTACCGAACTTTCGCAGTTGGCAGTCAACTTGAATGATCTTGTACTGCGCTTCAAGACATGATGCGAAACGGGATCCATAACTATCATGCATGGCGACAGGGCAGCGGATTCGTCTGCTGCACCTTTTCATAGCGCTAGTGCCATTTCTGGCAAAAAAACAATAACAAAATGCCAGCACTCGACTGCCATTAAAGTTGCATTTCATGTGTTTCATTAACGATACAAATACCTTCTATCAGGTATGATGCGCGCTACTTGAATACGGGAAGTATGAGGTATGCCGTGCAGAATCATTGTGGCCGACGACCACCCGCTGTTTCGTGAGGGCATGCTGCGTACTATCGAGCGGCTGATACCCGAAGCGATTATTGAAGAAGCAGGCAATCTGGATGAAGTACTCACCCTCGCACGCCGGGGTGATGAGGTCGACACACTGGTG (double strand) [PSPPH4241]", "binding result": "binds"},
      {"sequence": "CTTCCCTACGTGTCCCTGTTATGTCTTGTTGCGCGTCCTGCGCTACGTCCATGAACAAAGATTAACTTTGGATCCCTTTCTTGGGAAGAGGTCAATTGGCACCACGCAGTGTAAGCAAATGCTTACAAGGCTTTTGCAGGTCAGAATTGTGACGCCTTCAACAGGTACAGCGAATCGCTGCCCGCGCGCACCGAGGCGTCCAGCGAGTGAATACGCGGCAGCAGACGTGCGAAGTAGAAGCGTGCAGTACCCATCTTGCTTGCGTAGAACTCCTCCTGCTGCTCTTTACCGAGTGCTGCCTTGGCCATCATGGCCCACATGTAGGCATACGCCGTGTAACCGAACAGATGCAGATATTCCACAGAGGCTGCGCCGATTTCATTGGGATTACCGCGCGAGCGGTCCAGCACCCAGCCAGTCAGCTCATCCAGCATG (double strand) [PSPPH4712]", "binding result": "binds"},
      {"sequence": "AGCAGCAGAGAGTTGAATTGCAGCATTTTCTTTGACTTTCGTCATGACACTTCCTTGTTTGCTGATTAACAGGTTAGGTACGGCGGGACTCCCCCTGTAGCGAGAGAGTCCAGTCACTCGCCTTGTGGTGCGTAATGCATTGAAGCGTAACAAAGCTGACACATTTAGAAATCTTGTGTCCAGCTCTGTTCCATGATGTCAATTAGCCCAAAACGAGGAAGTGCCCACAGGCCTTGGGGAATCGTCCGATATTATTTTTTGTGATGATCAAACGCTGATAAGTGCTTGAGCAGACGAGGACAATCT (double strand) [PSPPH3076]", "binding result": "binds"},
      {"sequence": "ATGGATTCAGCCAAGGCTCTGGCCAGCGTGCGTGTCAGCCTTGGCCGCTACACCACGCAGGCAGACGTCGAGCGTGCCATTGAGATATTCAGCAAGGCGCTCAGCGCACCTGCTGCGTTCTGGTAATTTGCAACGCCTCTCAAGCCGCCCTTTCAGCGGGCGGCTTGCTGCCATTTCTTCCCTTCCCGCCAAAGCTGCTGCCTTGTAGCTCGCCACTTGCAGCGTGCCGCTAAATAAAATGTACCCCTCCAGATACAAAAAGACACAAATTGGCACAGTTCTTTCAAATGGAACGGTCGTGCCATAAACCATTGGTGCACGCTGCATTCAAGGGGTGCCTACACGCACCAAAGTGCAGTTAACGGATGCCAGAGCGTCCACAAACAGTGCAGGAGGGCAGACCACAAGTCTTTCTCCTCGCCAGGAAAGGAATCTAGCCGTGCTCTATCAGTCTTGTGTCAGACCACCGTTACGCTGGCTGCTTACCCCTGAGGCATTGCCTGCCTTGGACGGTGCCTGCCCGGTCGCCTTCGCGTTATCCAGATCTGCATGTTGTTTTTCGACGGCTC (double strand) [PSPPH5053]", "binding result": "binds"},
      {"sequence": "TGCGAACAACGCTATTTTTGCTACTCGACTCAACATCCGGATTCACTCTCTCCACAGGCAATTGATTAATAACCTGCACAGTCAGACAGCGCGGTGCCGGGGAAGTGGGTAGCGATCTGGTCGCCAACGTGTAAGCGCTACGATACAAAACGCATAACGCCCGGTTGATTTGCAGCGCTGCCGTGCACCCGCACTCTTGCGTAAGTTACTATGTGCGCCGTCGGCGACGGGCCTGCCCTCGCACCCATCGAAACCCACACGGAAACACACCCCTGTGACACTGGAACAGAATTACACCGCCA (double strand) [folE]", "binding result": "binds"},
      {"sequence": "TCACACTGACCGGGTAATCCCTGGCATTGCTGGTGCGCAAGGCAGCCAGCACCACTCGACTGATGGCGTCAGCGTCTGCTCTCCGTGCGGGTCGAACCTTGATGTCCATTTTTCGTACCTGGGCAGATAAACCGCACATGAAGAGCACAGTGAAAGCCGGCTTCGTTGATACCGAGCCATGACCGTTTTGCTGATGTGTAACCAAACGACGAATGGCATTCTTTGTAACACTCTGCATACAAATGAGCAGGCCCTTTATCTTATGGGGCTGCGCGACCGATAGCGCTTAAAAAGTAGCCGTCTGCGGCCGATCAACCTGTACCTCGCCTG (double strand) [PSPPH4247]", "binding result": "binds"},
      {"sequence": "GCTTCCCGGTCATTGGTATCGATTATTACTTCACGCATATGCGGCTTACGTCCGTGTTTGACTATCGCTGATATTGTTGTGGCGTGAATTTGTAACAATCACTGGCCAAGGCTCGACTGGCAAGCGCTTGTGTCCTGTGTGATACATAGTTGTAGGTCAATTCGCCATGGCCTGCAATTAGACCGACGTCTGACCTCTGTTTGATTTGATAAATTGACGACTGGACCTGCAAATCCGGATTTCTTTTTCCCGGAAACGCAAAACCCCCGGCAGGCCGGGGGTTTTGTTGACTCGCTGGTGCGATTACTCGTCGAGGAACGAGCGCAGGTGCTCGCTTCTTGTCGGGTGACGCAGCTTGCGCAGTGCCTTGGCTTCTATCTGACGAATCCGCTCGCGGGTAACGTCAAACTGCTTACCGACCTCTTCAAGCGTGTGATCGGTATTCATGTCGATGCCGAAA (double strand) [rpoD]", "binding result": "binds"},
      {"sequence": "TGCCGGCATAGAGCAGATTGCAGCCCGCCGCCAAAGCATCGTGTCCGGTCAGAAGTCCGTGGAAGCCAACCAGGTTGGCGTAGATGTGGGGTCGCGCAATATCGCTGACGTGCTCAATGCCCAGCGTCAGTTGTACGCGGCCGTTCGCGATTACAACGATGCTCGCTATGACTACATCCTCGACAACCTCAAGCTCAAACAGGCTGCCGGCACGCTGAGCCCTGACGATCTTAGAGCACTGGCGGCCTATCTAAAGCAGGACTACGACCCGGCCAGGGACTTTCTACCGCCGGGTGTTTAGATGAATTTTTAGATTGCATAGCTGAATAGTTTCAATCCGGATACATTAAGTTTTAAAAGTGTGATGTGCGTCACAGATGGCTTGTTGCCATTATTTGGCAAAATGATCAGATTTGCCTACCAGTGGCATGTCGGCAGGGAAGCGCTATGAATGATTCGGAAATGGGCGCTCAGACGCCTGACAATGTCCCTCGCCTCGAC (double strand) [PSPPH0813]", "binding result": "binds"}
    ]},
    {"tested_on": "RhpR", "experiment": "EMSA", "details": "unphosphorylated RhpR; 10 mM Tris-HCl pH 7.4, 50 mM KCl, 5 mM MgCl2, 10% glycerol, 3 ug/ml sheared salmon sperm DNA, room temperature; recombinant protein; protein details: N-terminal His6; label: 32P 5' end; probe letters rebuilt from the primers and the genome", "values": [
      {"sequence": "GCTTGCATAGTGCGTCTGTCGCCTGCGTGTGCCGCCGTTGTCTGGCCGCTGTTGAAGATCAACGCTGCCGCTCATGCTACTTCGCCGTGAGGCTCGGCGGTAGGGTGACGCTGGCCGATGTCAGGCGGATGTCGTGAATGTATCGATACGGATACATAGAGATGAGTGAACGAACCACGACGCTTACGCCTTAAAACGAAGATTGTCTAGCTAGCACTTCTACCAGTATCGCGGTGCCCTGATTAAGCCTTAGGTTGCTAGCTAGCATGACGGAAACCCGTGATCTCTCCGGTTTCGGCTGGCTTAAACGTCCGGTGAGCGGTTGCGGTTGCGGTTGCGCCTGTTGCCGCCAGGGCTTGATGGCGGCTGATCGTTATGGAGAACGACAAATGGACTTGCACGAA (double strand) [rhpR promoter EMSA probe]", "binding result": "binds"}
    ]}
  ]
}
